Pooled drug test results. Numbers come from NIAID ChemDB, via PubChem.

All rows: tests in culture; agent: HIV-1; cell line: PBMC; endpoint: EC50

Rows are shuffled and stem from different studies. ECn is the concentration giving n% inhibition of infection, replication or growth. Blank or dashed fields: not listed here.

structure	strain	mutations	method	conditions	result
S=C(NCCN1CCCCC1)Nc1ccc(Br)cn1	MDR (RT 74V 41L 106A 215Y)	RT-M41L L74V V106A T215Y	p24		>1 µM
CN(C)CCSc1nc(-c2cccs2)cc(-c2cccn2C)n1	LAV		RT activity		15.9 µM
N=C1Sc2ccccc2C2=NCCCN12	92RW016		ELISA		0.22 µM
Cc1cn([C@H]2C=C[C@@H](COC(=O)NCCc3ccccn3)O2)c(=O)[nH]c1=O	IIIB		p24		>100 µM
CN1CCN(c2nc(-c3cccs3)cc(-c3cccs3)n2)CC1	LAV-1		RT activity		21 µM
CN(C)CCSc1cccc(-c2cc(-c3cccs3)nc(SCCN(C)C)n2)c1	LAV		RT activity		0.8 µM
Nc1ccn([C@@H]2O[C@H](CO)C=C2F)c(=O)n1					0.37 µM
Nc1ncnc2c1ncn2[C@H]1O[C@@H](CO)[C@H](O)C1(F)F	LAV				3.4 µM
Cc1c(-c2ccc(SCCN(C)C)cc2)ncnc1-c1ccc(SCCN(C)C)cc1	LAV-1		RT activity		6 µM
Nc1ccn([C@H]2C=C[C@@H](CO)O2)c(=O)n1					0.005 µM
Cc1cn([C@H]2C=C[C@@H](CO)O2)c(=O)[nH]c1=O					0.05 µM
C=C1CN(S(=O)(=O)c2ccc(C)cc2)CCCN(CC2CC=CCC2)CCCN(S(=O)(=O)c2ccc(C)cc2)C1	BaL		p24		0.99 µM
O=c1[nH]c(=O)n([C@H]2O[C@@H](CO)CC2(F)F)cc1F	LAV				>100 µM
Nc1ncnc2c1ncn2[C@H]1CC[C@@H](CO)O1	A018		p24		4.8 µM
C[n+]1ccc(-c2c3nc(c(-c4ccccc4)c4ccc([nH]4)c(-c4cc[n+](C)cc4)c4nc(c(-c5ccccc5)c5ccc2[nH]5)C=C4)C=C3)cc1	LAV				0.34 µM
OCCNc1nc(-c2cccs2)cc(-c2cccs2)n1	LAV-1		RT activity		33.2 µM
CN(C)Cc1ccc(-c2cccc(-c3ccc(CN(C)C)cc3)n2)cc1	LAV		RT activity		1.6 µM
OCCN(CCO)CCOc1nc(-c2cccs2)cc(-c2cccs2)n1	LAV-1		RT activity		3.8 µM
Nc1ncnc2c1ncn2[C@@H]1O[C@H](COC2(c3ccccc3)c3ccccc3Oc3ccccc32)[C@@H](OC2(c3ccccc3)c3ccccc3Oc3ccccc32)[C@H]1OC1CCCCO1	IIIB		RT activity		1.5 µM
CC(C)Nc1cccnc1N(C)CCCCN(C)C(=O)c1cc2ccccc2[nH]1	D34		p24		<0.01 µM
CN(C[C@@H](CCN1CCC2(CC1)CS(=O)c1ccccc12)c1cccc(Cl)c1)S(=O)(=O)c1ccccc1	YU2		p24		<12.5 µM
CC(=O)N1CCC(C(=O)N(CCCN2CCC(Cc3ccc(C(N)=O)cc3)CC2)c2ccc(C)c(Cl)c2)CC1	CTV Clinical isolates		p24		0.0007 µM
CC(C)[C@H](NC(=O)OCc1ccccn1)C(=O)N[C@@H](Cc1ccccc1)[C@@H](O)C[C@H](Cc1ccccc1)NC(=O)OCc1cccnc1	Isolate A PR L10V/T12I/G16E/R57K/I64V	PR-L10V T12I G16E R57K I64V	p24		<0.8 µM
Nc1ccn([C@H]2CC[C@@](F)(CO)C2)c(=O)n1					>100 µM
Cc1cn([C@H]2C[C@H](N=[N+]=[N-])[C@@H](CO)O2)c(=O)[nH]c1=O	NL4-3		p24 / ELISA		0.05576 µM
Cc1ccc(-c2ccc3c(c2)C=C(C(=O)Nc2ccc(C[N+](C)(C)C4CCOCC4)cc2)CCC3)cc1	TB1 CLADE C		p24		<1 µM
O=C1CCC(=O)N1CCCCCCc1ccc2c3ccccc3c3ccccc3c2c1	IIIB		p24		0.8 µM
Nc1ccn([C@H]2C=C(F)[C@@H](CO)O2)c(=O)n1					0.94 µM
CC(C)(C)CNc1cccnc1N1CCN(C(=O)c2cc3ccccc3[nH]2)CC1	D34		p24		10 µM
CCCc1cc(=O)oc2c3c(c4c(c12)OC(C)(C)CC4)O[C@@H](C)[C@H](C)[C@@H]3O	TEKI(SI)		RT activity		0.5 µM
COc1ccc(CCNC(=O)OC[C@@H]2C=C[C@H](n3cc(C)c(=O)[nH]c3=O)O2)cc1	IIIB		p24		>100 µM
NCCNc1nc(-c2ccoc2)cc(-c2cc3ccccc3s2)n1	LAV-1		RT activity		1.6 µM
[N-]=[N+]=N[C@H]1C[C@H](N2CC(=O)NCC2=O)O[C@@H]1CO	US/92/727		RT activity		89.5 µM
CSCSc1nc(Cc2ccccc2)c(C(C)C)c(=O)[nH]1	IIIB		MTT / p24		<0.001 µM
COC(=O)CC1(O)C(O[Si](C)(C)C(C)(C)C)[C@H](n2ccc(=O)[nH]c2=O)O[C@@H]1CO[Si](C)(C)C(C)(C)C	LAI		RT activity		>10 µM
CN1CCN(CCSc2nc(-c3cc4ccccc4s3)c3ccccc3n2)CC1	LAV-1		RT activity		6.1 µM
CC(C)[C@@H]1NC(=O)[C@H](C(C)C)N([C@H]2C[C@H](O)[C@@H](CO)O2)C1=O	US/92/727		RT activity		74.5 µM
CN(C[C@@H](CCN1CCC2(CC1)CS(=O)c1ccccc12)c1ccc(Cl)c(Cl)c1)S(=O)(=O)c1ccccc1	YU2				<12 µM
CS(=O)c1ccc(-c2nc(-c3ccc(F)cc3)c(-c3ccncc3)[nH]2)cc1	AZT-resistant A012 Clinical isolate		p24		1 µM
Nc1nc(=O)n([C@H]2O[C@@H](CO)CC2(F)F)cc1F	LAV				>100 µM
CN1CCN(c2nc(-c3ccccc3)cc(-c3cccs3)n2)CC1	LAV-1		RT activity		63 µM
C=CCN(C(=O)OCc1ccc([N+](=O)[O-])cc1)C1CCN(C[C@H]2CN(C(=O)C3CCCC3)C[C@]2(O)c2ccccc2)CC1	20678 R5 CLADE B		p24		0.0028 µM
O=C(O)[C@H]1O[C@@H](Oc2cc3oc(-c4ccc(O)cc4)cc(=O)c3c(O)c2O)[C@H](O)[C@@H](O)[C@@H]1O	KM018 Clinical isolate		p24		136 µM
Cc1cn([C@H]2C=C[C@@H](COC(=O)NCCc3cccs3)O2)c(=O)[nH]c1=O	IIIB		p24		14 µM
Nc1nc(F)nc2c1ncn2[C@H]1S[C@@H](CO)C=C1F	LAI		RT activity		11.5 µM
Nc1nc(NC2CC2)c2ncn([C@H]3CO[C@@H](CO)O3)c2n1	RF		RT activity		0.3 µM
Nc1ccn([C@@H]2C=C(F)[C@H](CO)O2)c(=O)n1					0.03 µM
O=C(O)CCC(CCC(=O)O)(CCC(=O)O)NC(=O)CCC(CCC(=O)NC(CCC(=O)O)(CCC(=O)O)CCC(=O)O)(CCC(=O)NC(CCC(=O)O)(CCC(=O)O)CCC(=O)O)NC(=O)CCCOC(=O)C1(C(=O)OCCCC(=O)NC(CCC(=O)NC(CCC(=O)O)(CCC(=O)O)CCC(=O)O)(CCC(=O)NC(CCC(=O)O)(CCC(=O)O)CCC(=O)O)CCC(=O)NC(CCC(=O)O)(CCC(=O)O)CCC(=O)O)C2c3cc4c5c6c3-c3c(cc7c8c3C6C3c6c-5c(cc5ccc9cc(c-8c3c9c65)C7)C4)C21	AZT/3TC-resistant (RT M184V T215Y)		cytopathic effect		0.58 µM
Nc1ccn([C@@H]2CS[C@H](CO)O2)c(=O)n1	NL4-3		p24 / ELISA		0.026 µM
Nc1ccn([C@H]2O[C@@H](CO)CC2(F)F)c(=O)n1	LAV				>100 µM
Cc1c(-c2cccc(SCCN(C)C)c2)ncnc1-c1cccc(SCCN(C)C)c1	LAV		RT activity		6 µM
O=c1[nH]c(=O)n([C@@H]2O[C@@H](CO)CC2(F)F)cc1F	LAV				>100 µM
O=c1[nH]cnc2c1ncn2[C@H]1CO[C@@H](CO)C1	IIIB	AZT-resistant	p24		1.28 µM
Nc1nc2c(ncn2[C@H]2CC[C@@](F)(CO)C2)c(=O)[nH]1					32.3 µM
Cc1ccc(CCNC(=O)OC[C@@H]2C=C[C@H](n3cc(C)c(=O)[nH]c3=O)O2)cc1	IIIB		p24		>100 µM
O=c1ccn([C@H]2CC[C@@](F)(CO)C2)c(=O)[nH]1					>100 µM
CCO[C@@H]1Cc2cc(C(F)(F)F)ccc2C1N1CCN(C2(C)CCN(C(=O)c3c(C)ncnc3C)CC2)C[C@@H]1C	BaL		p24		0.0015 µM
CC(C)CN(C[C@@H](O)[C@H](Cc1ccccc1)NC(=O)O[C@H]1CO[C@H]2OCC[C@H]21)S(=O)(=O)c1ccc2nc(NC3CCN(C4CCCC4)CC3)sc2c1	LAI		p24 / ELISA		0.0022 µM
C=Cc1c(C)c2cc3[nH]c(cc4nc(cc5nc(cc1[nH]2)C(C)=C5CCC(=O)OC)C(CCC(=O)OC)=C4C)c(C)c3C=C	LAV				1.01 µM
Cc1cc[nH]c(=O)c1Cc1ccc2c(c1)NC(=O)N[C@]2(C#CC1CC1)C(F)(F)F			GFP	pseudotyped	0.132 µM
O=c1[nH]cnc2c1ncn2[C@H]1O[C@@H](CO)CC1(F)F	LAV				>100 µM
OCCN(CCO)c1nc(-c2cccs2)cc(-c2cccs2)n1	LAV		RT activity		4.5 µM
NC(=O)c1cn([C@H]2CS[C@H](CO)O2)cn1	LAV		RT activity		>100 µM
O=C(c1cc2ccccc2[nH]1)N1CCN(c2ncccc2NCC(F)(F)F)CC1	D34		p24		<10 µM
Nc1ccn([C@H]2S[C@@H](CO)C=C2F)c(=O)n1					0.12 µM
Nc1ccn([C@H]2O[C@@H](CO)C=C2F)c(=O)n1					0.51 µM
Nc1ccn([C@@H]2C=C[C@H](CO)O2)c(=O)n1					0.005 µM
CCOCn1c(Cc2ccccc2)c(C(C)C)c(=O)[nH]c1=O	IIIB		MTT / p24		0.004 µM
N[C@@H](CCCCNC1c2ccc3cc4c5c6c(cc7ccc8cc9cc1c1c9c9c8c7c6c9c6c1c2c3c56)C4)C(=O)O			p24		75 µM
CN(C[C@@H](CCN1CCC2(CC1)CS(=O)(=O)c1ccccc12)c1ccc(Cl)c(Cl)c1)S(=O)(=O)c1ccccc1	YU2				<12 µM
CCn1cc(C(=O)O)c(=O)c2cc(F)c(N3CCN(c4ccccc4OC)CC3)c(OC(F)F)c21	IIIB		p24		0.6 µM
Nc1nc2c(ncn2[C@@H]2C=C(F)[C@H](CO)C2)c(=O)[nH]1	LAI		RT activity		20.7 µM
Cc1ccc(NC(=O)CN2CCN(Cc3nc(-c4ccc(F)cc4)no3)CC2)cc1	G-3		RT activity		12.5 µM
O=C(O)[C@H]1O[C@@H](Oc2cc(O)cc(/C=C/c3ccc(O)cc3)c2)[C@H](O)[C@@H](O)[C@@H]1O	IIIB		RT activity		>300 µM
C[C@@H]1NC(=O)[C@H](C)N([C@H]2C[C@H](N=[N+]=[N-])[C@@H](CO)O2)C1=O	US/92/727		RT activity		13.7 µM
CN(C)CCSc1ccc(-c2ccncn2)cc1	LAV		RT activity		25.5 µM

For reference, 11 entries again:

structure | strain | mutations | method | conditions | result
CC(C)[C@H](NC(=O)OCc1ccccn1)C(=O)N[C@@H](Cc1ccccc1)[C@@H](O)C[C@H](Cc1ccccc1)NC(=O)OCc1cccnc1 | Isolate A PR L10V/T12I/G16E/R57K/I64V | PR-L10V T12I G16E R57K I64V | p24 |  | <0.8 µM
N=C1Sc2ccccc2C2=NCCCN12 | 92RW016 |  | ELISA |  | 0.22 µM
CCn1cc(C(=O)O)c(=O)c2cc(F)c(N3CCN(c4ccccc4OC)CC3)c(OC(F)F)c21 | IIIB |  | p24 |  | 0.6 µM
C[C@@H]1NC(=O)[C@H](C)N([C@H]2C[C@H](N=[N+]=[N-])[C@@H](CO)O2)C1=O | US/92/727 |  | RT activity |  | 13.7 µM
Nc1ccn([C@H]2O[C@@H](CO)CC2(F)F)c(=O)n1 | LAV |  |  |  | >100 µM
O=C(O)[C@H]1O[C@@H](Oc2cc(O)cc(/C=C/c3ccc(O)cc3)c2)[C@H](O)[C@@H](O)[C@@H]1O | IIIB |  | RT activity |  | >300 µM
CCO[C@@H]1Cc2cc(C(F)(F)F)ccc2C1N1CCN(C2(C)CCN(C(=O)c3c(C)ncnc3C)CC2)C[C@@H]1C | BaL |  | p24 |  | 0.0015 µM
O=c1[nH]c(=O)n([C@H]2O[C@@H](CO)CC2(F)F)cc1F | LAV |  |  |  | >100 µM
Nc1ccn([C@@H]2O[C@H](CO)C=C2F)c(=O)n1 |  |  |  |  | 0.37 µM
O=c1[nH]c(=O)n([C@@H]2O[C@@H](CO)CC2(F)F)cc1F | LAV |  |  |  | >100 µM
Nc1nc(NC2CC2)c2ncn([C@H]3CO[C@@H](CO)O3)c2n1 | RF |  | RT activity |  | 0.3 µM